PubChem BioAssay AID624099 – ICCB-Longwood, 2012
Shown is an unselected part of about 21,000 reagents. Over the whole deposit, 497 (2.4%) are marked active. 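Higher z means weaker E2 silencing; only reporter increases were scored, and knock-downs that hurt cell survival may mask genuine repressor factors.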 The numbers tell different reagents against one gene apart.

- Test: 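Knock-downs relieving repression by E2 of an HPV18 LCR luciferase reporter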 (primary screen)
- Cells: human C33A cervical carcinoma cells (HPV-negative) stably expressing BPV1 E2 and an HPV18 LCR luciferase reporter
- Knock-down reagent: siRNA pool against human genes, 40 nM
- Duration: 72 h
- Measurement: 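Per-well luciferase luminescence, z-scored on each plate against the plate mean and SD with control wells left out, then averaged across three replicate plates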
- Direction: mean z-score and z-score: higher = stronger reporter signal, weaker E2 silencing
- Rule for the call: 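Mean z ≥ 2 together with z ≥ 2 in two or more of the three replicates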

The opening 2 entries, to show the layout:
target	reagent	mean z-score	z-score, replicate A	z-score, replicate B	z-score, replicate C	Call
DENND2B (DENN domain containing 2B)	1	0.28	-0.48	0.31	1.01	inactive
CERS5 (ceramide synthase 5)	1	0.44	0.23	0.58	0.5	inactive

Main list, from the first entry:
target	reagent	mean z-score	z-score, replicate A	z-score, replicate B	z-score, replicate C	Call
DENND2B (DENN domain containing 2B)	1	0.28	-0.48	0.31	1.01	inactive
CERS5 (ceramide synthase 5)	1	0.44	0.23	0.58	0.5	inactive
HNRNPU (heterogeneous nuclear ribonucleoprotein U)	1	-0.07	0.08	-0.25	-0.02	inactive
PPP1R35 (protein phosphatase 1 regulatory subunit 35)	1	-0.15	-0.7	-0.06	0.3	inactive
OR2AT4 (olfactory receptor family 2 subfamily AT member 4)	1	0.12	0.08	-0.11	0.39	inactive
CHMP7 (charged multivesicular body protein 7)	1	0.34	0.17	0.14	0.72	inactive
KLRG2 (killer cell lectin like receptor G2)	1	-2.02	-1.96	-1.74	-2.35	inactive
TBC1D13 (TBC1 domain family member 13)	1	-1.12	-1.23	-1.1	-1.03	inactive
LINC00472 (long independently transcribed non-coding RNA 472)	1	-0.2	0	-0.53	-0.07	inactive
SLN (sarcolipin)	1	0.09	0.2	0.08	-0.02	inactive
ANO5 (anoctamin 5)	1	-0.3	-0.64	-0.04	-0.22	inactive
HMGXB4 (HMG-box containing 4)	1	1.68	2.25	1.39	1.41	inactive
MAB21L2 (mab-21 like 2)	1	-0.86	-0.68	-0.91	-0.99	inactive
LOC389108 (retired record)	1	1.85	2.46	1.6	1.49	inactive
DUSP23 (dual specificity phosphatase 23)	1	0.35	0.69	0.24	0.12	inactive
LOC387880 (retired record)	1	0.68	0.91	0.36	0.78	inactive
ZNF658B (zinc finger protein 658B (pseudogene))	1	0.98	1.52	0.83	0.58	inactive
ZNF658B (zinc finger protein 658B (pseudogene))	2	1.14	1.1	1.06	1.27	inactive
TM7SF3 (transmembrane 7 superfamily member 3)	1	1.25	1.09	1.25	1.42	inactive
USP47 (ubiquitin specific peptidase 47)	1	-0.4	-0.56	-0.4	-0.25	inactive
MRPS15 (mitochondrial ribosomal protein S15)	1	0.9	0.67	1.06	0.98	inactive
RPSAP55 (ribosomal protein SA pseudogene 55)	1	-2.5	-2.98	-2.27	-2.27	inactive
F9 (coagulation factor IX)	1	-0.19	-0.14	-0.34	-0.08	inactive
FAM135B (family with sequence similarity 135 member B)	1	0.6	0.21	0.96	0.64	inactive
WDR53 (WD repeat domain 53)	1	-0.09	0.18	-0.16	-0.29	inactive
TSPAN4 (tetraspanin 4)	1	1.91	2.08	1.84	1.81	inactive
POC1B (POC1 centriolar protein B)	1	1.05	3.44	-0.1	-0.17	inactive
SYNC (syncoilin, intermediate filament protein)	1	-0.76	-0.27	-1.06	-0.96	inactive
CEP131 (centrosomal protein 131)	1	-0.32	-0.22	-0.53	-0.21	inactive
PRDM9 (PR/SET domain 9)	1	-0.14	0.04	-0.24	-0.22	inactive
ANO4 (anoctamin 4)	1	-0.58	-0.99	-0.37	-0.37	inactive
LOC402539 (retired record)	1	-0.79	-0.76	-0.55	-1.05	inactive
RAB11FIP2 (RAB11 family interacting protein 2)	1	-0.29	-0.08	-0.61	-0.17	inactive
CELA3A (chymotrypsin like elastase 3A)	1	1.44	1.28	1.45	1.58	inactive
PRIM2 (DNA primase subunit 2)	1	1.66	1.77	1.69	1.53	inactive
H4C1 (H4 clustered histone 1)	1	-0.82	-1.18	-0.65	-0.63	inactive
EIF5B (eukaryotic translation initiation factor 5B)	1	-1.08	-0.94	-1.04	-1.26	inactive
UGT3A2 (UDP glycosyltransferase family 3 member A2)	1	-0.34	-0.34	-0.08	-0.6	inactive
COASY (Coenzyme A synthase)	1	1.15	1.95	0.71	0.8	inactive
